Legend:
[1] = target: VSV G protein on VSV delta G pseudotyped virus-like particles (Vesicular stomatitis virus); test: MSD electrochemiluminescence, control VLPs on plate, supernatant 1:10, a-hFc
[2] = target: SARS-COV-2 RBD-MMH (SARS-CoV-2)

| Substance | VSV-VLP Binding Signal (RLU) [1] | 50 nM Ag Bound (RU) [2] |
| --- | --- | --- |
| mAb10987 (antibody) | 1840 RLU |  |
| mAb10933 (antibody) | 507 RLU |  |
| mAb10933 |  | 428 RU |
| mAb10934 (antibody) | 3880 RLU |  |
| mAb10989 (antibody) | 672 RLU |  |

— patent publication US20260234738A1
